Measurements reported in PMC4450067, “Viral and Cellular Proteins Containing FGDF Motifs Bind G3BP to Block Stress Granule Formation” (PLoS Pathogens, 2015).

Target: G3BP-NTF2 (purified NTF2-like domain of human G3BP-1) (human, UniProt Q13283 1-139)
Assay: ITC
Conditions: both partners purified

B1: nsP3-25 (peptide spanning residues 449-473 of SFV nsP3) (peptide)
peptide: LTFGDFDEHEVDALASGITFGDFDD
notes: source: dissolved and dialyzed in ITC buffer
B1 was tested, and the Kd was 6.7 µM, the dH was -12.8 ± 0.1 kcal/mol and the “stoichiometry N” value was 2.4 ± 0.1.
